# According to publication doi:10.1101/2022.08.07.503104:
# Molecular target: Recombinant HIV-1 capsid protein (CA) (HIV-1)
# Test: SPR
substance,measurement,value
Recombinant human CypA (from UniProt P62937 1-165) (enzyme),Kd,3.6 µM
